Test results taken from article PMC5803236 (Scientific Reports, 2018).
Values after ≈ are worked out from the molar mass of the structure shown.

Tests used:
[1] = target: hemagglutinin (HA) of H5N8 A/Duck/Korea/Gochang1/2014 (HPAI) (Influenza A virus (A/breeder duck/Korea/Gochang1/2014(H5N8)), UniProt W8P1W5); experiment: hemagglutination inhibition assay, whole virus with chicken red blood cells; conditions: 4 HAU virus, 1% chicken RBC, room temperature; lowest concentration with complete inhibition; competes with receptor sialic acid
[2] = target: hemagglutinin (HA) of H1N1 A/Swine/Iowa/15/30 (Influenza A virus (A/swine/Iowa/15/1930(H1N1)), UniProt Q9WCD9); experiment: as above; conditions: 4 HAU virus, 1% chicken RBC, room temperature; lowest concentration with complete inhibition; competes with receptor sialic acid

In the case of `CC(=O)N[C@H]1[C@H]([C@H](O)[C@H](O)CO)O[C@@](OC[C@H]2O[C@@H](O[C@H]3[C@H](O)[C@@H](O)C(O)O[C@@H]3CO)[C@H](O)[C@@H](O)[C@H]2O)(C(=O)O)C[C@@H]1O` (stereo partly drawn) [6′-sialyllactose], the MIC [1] is reported as > 200 mM.

`CC(=O)N[C@H]1[C@H]([C@H](O)[C@H](O)CO)O[C@@](O[C@H]2[C@@H](O)[C@@H](CO)O[C@@H](O[C@H]3[C@H](O)[C@@H](O)C(O)O[C@@H]3CO)[C@@H]2O)(C(=O)O)C[C@@H]1O` (stereo partly drawn) gave an MIC [2] of 31.25 mM (≈ 19.8 mg/mL) and an MIC [1] of 12.5 mM (≈ 7.92 mg/mL).
